Anti-infective test results gathered from many reports (values: NIAID ChemDB through PubChem).

All rows: host cell toxicity; cell line: H9; endpoint: CC50

Blank or dashed fields: not listed here. Conditions beyond the fields shown may differ between rows. CCn: concentration that lowers growth or viability of the cells by n%.

smiles	read by	value
O=C(O[C@@H]1[C@@H](c2c(O)cc(O)c3c2O[C@H](c2cc(O)c(O)c(O)c2)[C@H](OC(=O)c2cc(O)c(O)c(O)c2)C3)c2c(O)cc(O)cc2O[C@@H]1c1cc(O)c(O)c(O)c1)c1cc(O)c(O)c(O)c1		40 µg/mL
CC1(C)CC[C@]2(C(=O)O)CC[C@]3(C)C(=CC[C@@H]4[C@@]5(C)C[C@@H](O)[C@@H]6OC(=O)c7cc(O)c(O)c(O)c7-c7c(cc(O)c(O)c7O)C(=O)OC[C@@]6(CO)[C@@H]5CC[C@]43C)[C@@H]2C1		40 µM
Cc1cn([C@H]2C[C@H](N=[N+]=[N-])[C@@H](CO)O2)c(=O)[nH]c1=O		500 µg/mL
O=C(Oc1c(O)cc([C@H]2Oc3cc(O)cc(O)c3C[C@H]2OC(=O)c2cc(O)c(O)c(O)c2)cc1O)c1cc(O)c(O)c(O)c1		40 µg/mL
Nc1ccn([C@H]2CO[C@@H](CO)S2)c(=O)n1		>500 µM
O=C1OCC2OC(=O)c3cc(O)c(O)c(O)c3-c3c(O)c(O)c(O)c4c3C(=O)OC(C2OC(=O)c2cc(O)c(O)c(O)c2-c2c1cc(O)c(O)c2O)C1OC(=O)c2c-4c(O)c(O)c(O)c2C1c1c(O)cc(O)c2c1O[C@H](c1ccc(O)c(O)c1)C(O)C2		15 µM
CCCCCCc1ccsc1-c1cn([C@H]2C[C@H](O)[C@@H](CO)O2)c(=O)[nH]c1=O		>10 µg/mL
C[C@]12CC[C@H]3[C@@H](CCC4=CC(=O)CC[C@@]43C)[C@@H]1CC[C@@H]2C(=O)O		67.3 µM
Cc1cn([C@H]2C[C@H](N=[N+]=[N-])[C@@H](CO)O2)c(=O)[nH]c1=O	MTT	>100 µM
COc1cc([C@@H]2c3cc4c(cc3[C@@H](O[C@@H]3O[C@@H]5CO[C@@H](C)O[C@H]5[C@H](O)[C@H]3O)[C@H]3COC(=O)[C@H]23)OCO4)cc(OC)c1O		1.27 µg/mL
CC1(C)CC[C@]2(C(=O)O)CC[C@]3(C)C(=CC[C@@H]4[C@@]5(C)CC[C@H](O)C(C)(C)[C@@H]5CC[C@]43C)[C@@H]2C1		21.8 µg/mL
CC1(C)OC1COc1c2ccoc2cc2oc(=O)ccc12		139.9 µM
C[C@]12CC[C@H]3[C@@H](CC=C4NC(=O)CC[C@@]43C)[C@@H]1CC[C@@H]2C(=O)Nc1ccc([N+](=O)[O-])c(C(F)(F)F)c1		4.8 µM
Oc1cc(O)c2c(c1)O[C@H](c1ccc(O)c(O)c1)[C@H](O)C2		45 µM
Cc1ccc(C(=O)OC[C@H]2O[C@H](n3cc(-c4ccc(-c5ccccc5)s4)c(N)nc3=O)C[C@@H]2OC(=O)c2ccc(C)cc2)cc1		<10 µg/mL
COc1ccc(S(=O)(=O)N(CC(C)C)C[C@@H](O)[C@H](Cc2ccccc2)NC(=O)O[C@H]2CO[C@H]3OCC[C@H]32)cc1		>0.1 µM
CC1(C)CC[C@]2(C(=O)O)CC[C@]3(C)C(=CCC4[C@@]5(C)CCC(=O)C(C)(C)C5CC[C@]43C)C2C1		0.8 µg/mL
NC[C@H]1O[C@@H](n2cnc3c(N)ncnc32)[C@H](O)[C@@H]1F		100 µg/mL
Cc1ccc(C(=O)OC[C@H]2O[C@@H](n3cc(-c4ccncc4)c(N)nc3=O)C[C@@H]2OC(=O)c2ccc(C)cc2)cc1		>10 µg/mL
O=C(OCC1O[C@@H](O)C(O)(COC(=O)c2cc(O)c(O)c(O)c2)C1O)c1cc(O)c(O)c(O)c1		45 µM
[N-]=[N+]=N[C@H]1C[C@H](n2cc(I)c(=O)[nH]c2=O)O[C@@H]1CO		197 µM
CC1(C)CC[C@]2(C(=O)O)CC[C@]3(C)C(=CCC4[C@@]5(C)CC[C@H](OC(=O)CC6(CC(=O)O)CCCC6)C(C)(C)C5CC[C@]43C)C2C1		4.7 µg/mL
O=C(O[C@H](Cc1c(O)cc(O)cc1O)[C@@H](c1cc(O)c(O)c(O)c1)c1c(O)cc(O)c2c1O[C@H](c1cc(O)c(O)c(O)c1)[C@H](OC(=O)c1cc(O)c(O)c(O)c1)C2)c1cc(O)c(O)c(O)c1		8 µg/mL
Cc1cn([C@H]2C[C@H](N=[N+]=[N-])[C@@H](CO)O2)c(=O)[nH]c1=O		500 µg/mL
Nc1ncnc2c1ncn2[C@H]1C=C(F)[C@@H](CO)O1		50 µg/mL
CCCCCCc1ccsc1-c1cn([C@H]2C[C@H](OC(=O)c3ccc(C)cc3)[C@@H](COC(=O)c3ccc(C)cc3)O2)c(=O)[nH]c1=O		>10 µg/mL
COC(=O)C1C[C@]2(C)C3CC[C@@]4(C)C(CC[C@@H]4OC(C)=O)C3CC[C@]23O[C@@H]3C1=O		4.34 µM
Cc1cn([C@H]2C[C@H](N=[N+]=[N-])[C@@H](CO)O2)c(=O)[nH]c1=O		>0.038 µM
COc1cc([C@@H]2c3cc4c(cc3[C@@H](O)[C@H]3COC(=O)[C@H]23)OCO4)cc(OC)c1O		0.171 µg/mL
CCCCCCCCCCCCCCOC[C@H](CO[C@]1(C(=O)O)C[C@H](O)[C@@H](NC(C)=O)[C@H]([C@H](O)[C@H](O)CO)O1)OCCCCCCCCCCCCCC	MTT	<100 µM
O=C(OC1[C@H](O)CC(OC(=O)c2cc(O)c(O)c(O)c2)(C(=O)O)C[C@H]1O)c1cc(O)c(O)c(O)c1		45 µM
Nc1nc(N)c2ncn(C[C@@H](CO)OCP(=O)(O)O)c2n1		>100 µM
Cc1ccc(C(=O)OC[C@H]2O[C@H](n3cc(-c4sccc4C)c(=O)[nH]c3=O)C[C@@H]2OC(=O)c2ccc(C)cc2)cc1		<10 µg/mL
CCC1(CC)Oc2ccc3c(C)cc(=O)oc3c2[C@@H](OC(=O)C23CCC(C)(C(=O)O2)C3(C)C)[C@H]1OC(=O)C12CCC(C)(C(=O)O1)C2(C)C		>37.6 µM
Nc1ncnc2c1ncn2CCOCP(=O)(O)O		81 µM
CC(=O)O[C@H]1CCC2C3CC[C@@]45O[C@@H]4C(=O)C(S(C)(=O)=O)C[C@]5(C)C3CC[C@@]21C		1.29 µM
Nc1ccn([C@H]2C=C(F)[C@@H](CO)O2)c(=O)n1		100 µg/mL
Nc1nc2c(ncn2CC(CO)CCO)c(=O)[nH]1		>50 µM
C[C@H]1[C@H](C)CC[C@]2(C(=O)O)CC[C@]3(C)C(=CCC4[C@@]5(C)C[C@@H](O)[C@H](O)[C@@](C)(CO)[C@@H]5CC[C@]43C)[C@H]12		9 µg/mL
CC(=O)O[C@H]1CCC2C3CC[C@@]45O[C@@H]4C(=O)C(C(N)=O)C[C@]5(C)C3CC[C@@]21C		3.84 µM
CC(C)=CCOc1c2occc2cc2ccc(=O)oc12		35.2 µM
Nc1ccn([C@@H]2CO[C@H](CO)S2)c(=O)n1		>500 µM
CC1(C)CC[C@]2(C(=O)O)CC[C@]3(C)C(=CCC4[C@@]5(C)CC[C@H](OC(=O)CCC(=O)O)C(C)(C)C5CC[C@]43C)C2C1		6.5 µg/mL
[N-]=[N+]=NCc1cc(CN=[N+]=[N-])cc(C(=O)CC(=O)C(=O)O)c1	XTT	60 µM
O=C(OCC1O[C@@H](O)C(O)(COC(=O)c2cc(O)c(O)c(O)c2)C1OC(=O)c1cc(O)c(O)c(O)c1)c1cc(O)c(O)c(O)c1		40 µM
Cc1cn([C@H]2C[C@H](N=[N+]=[N-])[C@@H](CO)O2)c(=O)[nH]c1=O		500 µg/mL
C[C@@H]1CC[C@]2(C(=O)O)CC[C@]3(C)C(=CCC4[C@]5(C)C(CC[C@]43C)C(C)(C)[C@@H](O)[C@@H](O)[C@H]5O)C2[C@]1(C)O		>20 µg/mL
COC(=O)C1C[C@]2(C)C3CC[C@@]4(C)C(CC[C@@H]4O)C3CC[C@]23O[C@@H]3C1=O		10.8 µM
COc1cc2c(c3ccccc3n2C)c2c(Cl)nccc12		26 µg/mL
CC1(C)CC[C@]2(C(=O)O)CC[C@]3(C)C(=CCC4[C@@]5(C)CC[C@H](OC(=O)COCC(=O)O)C(C)(C)C5CC[C@]43C)C2C1		22.1 µg/mL
CC(=O)OC[C@H]1O[C@@H](OC(C)(C)[C@H]2Cc3cc4ccc(=O)oc4cc3O2)[C@H](OC(C)=O)[C@@H](OC(C)=O)[C@@H]1OC(C)=O		>86.8 µM
COc1cc([N+](=O)[O-])ccc1N[C@@H]1c2cc3c(cc2[C@@H](c2cc(OC)c(O)c(OC)c2)[C@H]2C(=O)OC[C@@H]21)OCO3		0.23 µg/mL
CCN1c2ncccc2-c2cnc(C)n2-c2ccc(-c3cn[nH]c3)nc21		>100 µM
Cc1cn([C@H]2C[C@H](N=[N+]=[N-])[C@@H](CO)O2)c(=O)[nH]c1=O		500 µg/mL
C[C@]12CCCCC13OC3C(=O)C(C(N)=O)C2		26.78 µM
COc1cc2c(c3ccccc3n2C)c2c(NCCN)nccc12		0.23 µg/mL
CC(C)=CCOc1c2ccoc2cc2oc(=O)ccc12		>185.2 µM
CCCCCCCCCCCCCCCCCCOC[C@H](CO[C@]1(C(=O)O)C[C@H](OS(=O)(=O)O)[C@@H](NC(C)=O)[C@H]([C@H](OS(=O)(=O)O)[C@@H](COS(=O)(=O)O)OS(=O)(=O)O)O1)OC	MTT	>200 µM
Cc1cn([C@H]2C[C@H](N=[N+]=[N-])[C@@H](CO)O2)c(=O)[nH]c1=O		1872 µM
O=c1[nH]cnc2c1ncn2[C@H]1CC[C@@H](CO)O1	MTT	>100 µg/mL
COc1c(O)cc(C(=O)O[C@@H]2Cc3c(O)cc(O)cc3O[C@@H]2c2ccc(O)c(O)c2)cc1O		50 µg/mL
CCCCCCCCCCCCCCCCCCCCCCOCC(C)(COCCCCCCCCCCCCCCCCCCCCCC)CO[C@]1(C(=O)O)C[C@H](OS(=O)(=O)O)[C@@H](NC(C)=O)[C@H]([C@H](OS(=O)(=O)O)[C@@H](COS(=O)(=O)O)OS(=O)(=O)O)O1	MTT	>100 µM
CC(C)Nc1cccnc1N1CCN(C(=O)c2cc3cc(NS(C)(=O)=O)ccc3[nH]2)CC1		>100 µM
CC1(C)Oc2ccc3ccc(=O)oc3c2[C@@H](OC(=O)C23CCC(C)(C(=O)O2)C3(C)C)[C@H]1OC(=O)C12CCC(C)(C(=O)O1)C2(C)C		>16.1 µM
Nc1nc(N)c2ncn([C@@H]3O[C@H](CO)[C@@H](F)[C@H]3O)c2n1		60 µg/mL
COc1cc2c(c3ccccc3n2C)c2c(NCCN3CCCCC3)nccc12		0.24 µg/mL
O=C(O[C@@H]1O[C@@H]2COC(=O)c3cc(O)c(O)c(O)c3-c3c(cc(O)c(O)c3O)C(=O)O[C@H]([C@H]1O)[C@@H]2O)c1cc(O)c(O)c(O)c1		15 µM
C[C@]12CCC3C(CC[C@@]45O[C@@H]4C(=O)C(S(=O)(=O)c4ccccc4)C[C@]35C)C1CC[C@@H]2O		4.16 µM
CC(C)(O)[C@H]1Cc2cc3ccc(=O)oc3cc2O1		>203.9 µM
Nc1nc(=O)n([C@@H]2C[C@H](O)[C@@H](CO)O2)cc1-c1ccncc1		>10 µg/mL
Cc1cn([C@H]2C[C@H](N=[N+]=[N-])[C@@H](CO)O2)c(=O)[nH]c1=O		30 µM

For reference, 8 entries again:

smiles	read by	value
Nc1nc(N)c2ncn([C@@H]3O[C@H](CO)[C@@H](F)[C@H]3O)c2n1		60 µg/mL
Cc1cn([C@H]2C[C@H](N=[N+]=[N-])[C@@H](CO)O2)c(=O)[nH]c1=O	MTT	>100 µM
CC(=O)OC[C@H]1O[C@@H](OC(C)(C)[C@H]2Cc3cc4ccc(=O)oc4cc3O2)[C@H](OC(C)=O)[C@@H](OC(C)=O)[C@@H]1OC(C)=O		>86.8 µM
Cc1cn([C@H]2C[C@H](N=[N+]=[N-])[C@@H](CO)O2)c(=O)[nH]c1=O		>0.038 µM
Nc1nc2c(ncn2CC(CO)CCO)c(=O)[nH]1		>50 µM
CC(=O)O[C@H]1CCC2C3CC[C@@]45O[C@@H]4C(=O)C(S(C)(=O)=O)C[C@]5(C)C3CC[C@@]21C		1.29 µM
Nc1ccn([C@@H]2CO[C@H](CO)S2)c(=O)n1		>500 µM
CC1(C)CC[C@]2(C(=O)O)CC[C@]3(C)C(=CCC4[C@@]5(C)CC[C@H](OC(=O)CC6(CC(=O)O)CCCC6)C(C)(C)C5CC[C@]43C)C2C1		4.7 µg/mL